Results on two molecules are retold here after article PMC11096021 (Immunity, 2024).

A word on the Kd: it is the constant that tells how readily two partners part at equilibrium. Higher therefore signals weaker binding.

Test [1] has as its target A/Shanghai/02/2013 H7 trimer (biotinylated, for BLI) (Influenza A virus A/Shanghai/02/2013 …, UniProt R4NN21, strain, biotin on the avi tag (BirA)). The note with it: both partners purified.
Test [2] addresses A/Indonesia/05/2005 H5 trimer (biotinylated, for BLI) (Influenza A virus A/Indonesia/5/2005 …, UniProt C5MRF2, strain, biotin on the avi tag (BirA)). The note with it: both partners purified.

B1: 09–1B12 Fab (mature; Lys-C digest of recombinant IgG, used for BLI) (Fab, V domains shown)
VH: QVQLVQSAPEVKRPGASVRLSCKASGYTFNTYGIIWVRQAPGQGLEWMGWISAYTGNTNYAQKVQGRVTMTTDITTSTAYLELRGLRSDDTAVYYCARGLLQGAVILDSYHYALDFWGQGTTVTVSS
VL: EIVLTQSPGTLSLSPGERATLSCRASQSVTNRFIAWYQHKPGQSPRLLIYGASSRATGIPDRFSGRGSGTDFTLTISRLEPEDFAVYYCQQYDTSPRWTFGQGTKLEIK
For B1, in test [1], the binding result was “binds”.

B2: 09–1B12-UCA Fab (Lys-C digest of recombinant IgG, used for BLI) (Fab, V domains shown)
VH: QVQLVQSGAEVKKPGASVKVSCKASGYTFTSYGISWVRQAPGQGLEWMGWISAYNGNTNYAQKLQGRVTMTTDTSTSTAYMELRSLRSDDTAVYYCARGLLQGVVILDSYYYTMDVWGQGTTVTVSS
VL: not shown
In test [1], B2 gave a dissociation constant (Kd) of 2.68 µM. The binding result in test [2] is “no binding”.
